Measurements as given in PMC8464830 (2021).
Values joined by “and” are separate entries in the source; they are usually repeats but may differ in a detail not shown here. Equal values may be shown once.

What was measured:
human Calmodulin-1 [1] = biological target: T1, human Calmodulin-1 (human, UniProt P0DP23 1-149); test: SPR
human Calmodulin-1 [2] = biological target: T1, human Calmodulin-1; test: SPR; remark: listed apart in the source

Binder	Kd (human Calmodulin-1 [1])	koff (human Calmodulin-1 [2]) [s⁻¹]
HIV-1 MA protein from clade A1 (92UG037.1), full-length (natural protein) MGARASVLSGGKLDAWEKIRLRPGGKKKYRLKHLVWASRELERFALNPSLLETTEGCQQIMEQLQSALRTGTEELRSLYNTVATLYCVHQRIEVKDTKEALDKIEEIQKKSKQKTQQAAADTGSSSKVSQNY	55.5 µM and 56.3 µM	0.397
HIV-1 MA protein from clade C (92BR025.8), full-length (natural protein) MGARASILRGGKLDAWERIKLKPGGKKHYMMKHLVWASRELERFALDPGLLETSEGCKQIMKQLQPALQTGTKELISLHNTVATLYCVHEKIDVRDTKEALDKIKEEQNKSQQKTQQAEAADKGKVSQNY	87.9 µM	0.474
HIV-1 MA protein from clade B (LAI), full-length (natural protein) MGARASVLSGGELDRWEKIRLRPGGKKKYKLKHIVWASRELERFAVNPGLLETSEGCRQILGQLQPSLQTGSEELRSLYNTVATLYCVHQRIEIKDTKEALDKIEEEQNKSKKKAQQAAADTGHSSQVSQNY	–	0.309
HIV-1 MA protein from clade A2 (CDKTB48), full-length (natural protein) MGARASVLSGGKLEAWEKIRLRPGGKKKYRLKHLVWASRELEKFSINPSLLETETGCRRIFGQLQPALETGTEELRSLYNTIAVLYFVHQKIEVKDTKEALDKIEEEQNKCKQKTQQAAADTGSSSSQNYRGSSSQNY	52.3 µM and 49.3 µM	0.566
